From patent US20200010853, “METHOD FOR INSERTING DESIRED DNA FRAGMENT INTO SITE LOCATED ADJACENT TO BINDING DOMAIN OF DNA-BINDING PROTEIN” (KYUSHU UNIVERSITY, NATIONAL UNIVERSITY CORPORATION, published 2020) come the findings set out here.

Construct, isoform or probe ends are uncertain for at least one entry. Where a protein sequence is shown, tags need not be part of it.

This data set deals with T1, Tn5 transposase (UniProt Q46731).
T1 sequence (looked up, limits assumed): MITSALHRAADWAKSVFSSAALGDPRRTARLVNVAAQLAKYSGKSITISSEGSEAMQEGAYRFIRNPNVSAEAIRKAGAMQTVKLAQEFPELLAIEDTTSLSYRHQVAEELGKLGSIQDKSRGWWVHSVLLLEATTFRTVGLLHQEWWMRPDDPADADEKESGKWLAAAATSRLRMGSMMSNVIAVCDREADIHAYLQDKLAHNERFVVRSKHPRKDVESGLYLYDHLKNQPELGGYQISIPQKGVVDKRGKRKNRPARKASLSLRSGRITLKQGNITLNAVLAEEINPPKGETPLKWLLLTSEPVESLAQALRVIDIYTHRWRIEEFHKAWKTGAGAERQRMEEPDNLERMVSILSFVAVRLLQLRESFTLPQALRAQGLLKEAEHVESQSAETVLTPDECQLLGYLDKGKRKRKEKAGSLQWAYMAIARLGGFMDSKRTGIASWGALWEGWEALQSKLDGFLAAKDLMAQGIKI
Nature of the data set: binding assay. Particulars: Tn5 85 ug/mL bound at room temperature, activated in 10 mM TAPS pH 8.5, 5 mM MgCl2, 10% DMF, 37 C; purified recombinant protein; label: conjugated to secondary antibody.

Consider “ATGCATTAATACGACTCACTATAGGGTAGATCGCTCGTCGGCAGCGTCAGATGTGTATAAGAGACAG / CTGTCTCTTATACACATCT”, for which the binding result is “binds”.
